# Measurements as given in the supplement of paper PMC9931576.
# Where a chain is given by its changes, count along the chain named. Human monoclonal antibodies against the spike receptor-binding domain (heavy:light variable regions). IC50 against pseudoviruses bearing the spike of naturally observed variants; lower = stronger; >10 µg/ml means not reached at the top dose. No active / inactive call. The stated detection limit is 0.0005 µg/ml; values near or below 0.001 µg/ml lie at the floor of the assay.
# B1: BD56-126 (protein)
# chain 1: QVTLKESGPVLVKPTETLTLTCTVSGFSLSNSRMGVSWIRQPPGKALEWLAHIFSNDEKSYRTSLKTRLTISKDTSKSQVVLTMTNMDAVDTATYYCARFLEGAWPGSGENWFDSWGQGSLVTVSS
# chain 2: SYELTQPPSVSVSPGQTARIACSAGAFPNLYAYWYQQKPGQAPVLVMYKDTERPSGIPERFSGSSSGTTVTLTISGVQAEDEADYYCQSADSSGVVFGGGTRLTVL
# B2: BD56-133 (protein)
# chain 1: QVQLVQSGAEVKKPGASVKVSCKASGYSFSGYYMFWVRQAPGQGLEWMGRINPNNGGTDYAQKFEDRVTLTRDTSINTAYMELSRLRSDDTAVYYCAREPGYDILTDSYRDYWGQGTLVIVSS
# chain 2: EIVMTQSPATLSVSPGEGATLSCRASQSVSSSLAWYQQKPGQAPRLLIYGASARATGIPARFSGSGSGTEFTLTISSLQSEDFTFYYCLQYNSWPPWTFGPGTKVEVK
# B3: BD56-138 (protein)
# chain 1: QVQLVQSGTEVKKPGASVKISCKASGYTFTNYALHWVRQAPGQRLEWMGWINAGNGGTKHSEKFQGRVTITRDTSASTAYMELSGLRPEDTALYYCARGPLIVGPKEVDFDYWGQGTLVIVSS
# chain 2: SYVLTQPPSVSVAPGKTARMTCGGNEIGSKSVHWYQQKPGQAPALVIYYDNDRPSGIPERFSGSNSGNTATLTISRVEAGDEADYYCQVWDSSTVIFGGGTKLTVL
# B4: DH1186 (protein)
# chain 1: QVQLVQSGAEVKKPGSSVKVSCKASGGTFSNYAINWVRQAPGQGLEWMGRIIPIFGIANYAQEFQGRVTITADKSTSTVYMELSSLRSEDTAVYYCARANYYYESSGYYFDYWGQGTLVTVSS
# chain 2: EIVLTQSPGTLSLSPGERATLSCRASQSVSSSFLAWYQQKPGQAPRLLIYGASSRATGIPDRFSGSGSGTDFTLTISRLEPEDFAVYYCLQYGSSRTFGQGTKVEIK
# B5: BD56-143 (protein)
# chain 1: QVQLVQSGAEVRKPGASMKVTCKASGYTFTNYAIHWVRQAPGQRLEWMGWINAGNGGTKHSEKFQGRVTISRDTSASTAYMELSGLRSADTAVYYCARGPLVVGPKEVDFDYWGRGTLVIVSS
# chain 2: B3 chain 2 with K16R, N25Y, N51S, D52E, P54H, I96V, T101S
# B6: BD56-144 (protein)
# chain 1: QVQLQESGPGLVKPSQTLSLTCTVSGDSIERGGYYWSWIRQHPGMGLEWIGYIYYSGSTYQNPSLKSRVTISVDTSKNQFSLRLSSVTAADTAVYYCARVVDTSAQLDPWGQGTLVSVSS
# chain 2: QSVLTQPPSVSAAPGQKVTVSCSGSSSNIGINSLSWYQQLPGTAPKLLIYDDNKRPSGIPDRFSGSKSGTSATLGISGLQTGDEADYYCGTWDDSLSAAVFGGGTKLTVL
# Molecular target: SARS-CoV-2 Omicron BA.1 spike pseudovirus
# Experiment: pseudovirus neutralization IC50; higher = weaker neutralization
# Method: (§1)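 Single-round VSV luciferase pseudovirus mixed with antibody dilutions for 1 h and put on Huh-7 cells for about a day; IC50 from the dose curve.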
row,Binder,pseudovirus neutralization IC50
1,B1,> 10 µg/mL
2,B2,3.12 µg/mL
3,B3,> 10 µg/mL
4,B4,> 10 µg/mL
5,B5,> 10 µg/mL
6,B6,> 10 µg/mL

# Molecular target: SARS-CoV-2 Omicron BA.2 spike pseudovirus
# Experiment: as above
# Method: as §1
row,Binder,pseudovirus neutralization IC50
1,B1,> 10 µg/mL
2,B2,2.92 µg/mL
3,B3,> 10 µg/mL
4,B4,> 10 µg/mL
5,B5,> 10 µg/mL
6,B6,> 10 µg/mL

# Molecular target: SARS-CoV-2 Omicron BA.2.75 spike pseudovirus
# Experiment: as above
# Method: as §1
row,Binder,pseudovirus neutralization IC50
1,B1,> 10 µg/mL
2,B2,> 10 µg/mL
3,B3,> 10 µg/mL
4,B4,> 10 µg/mL
5,B5,> 10 µg/mL
6,B6,> 10 µg/mL

# Molecular target: SARS-CoV-2 Omicron BA.5 spike pseudovirus
# Experiment: as above
# Method: as §1
row,Binder,pseudovirus neutralization IC50
1,B1,> 10 µg/mL
2,B2,> 10 µg/mL
3,B3,> 10 µg/mL
4,B4,> 10 µg/mL
5,B5,> 10 µg/mL
6,B6,> 10 µg/mL

# Molecular target: SARS-CoV-2 Omicron BQ.1.1 spike pseudovirus
# Experiment: as above
# Method: as §1
row,Binder,pseudovirus neutralization IC50
1,B1,> 10 µg/mL
2,B2,> 10 µg/mL
3,B3,> 10 µg/mL
4,B4,> 10 µg/mL
5,B5,> 10 µg/mL
6,B6,> 10 µg/mL

# Molecular target: SARS-CoV-2 Omicron XBB spike pseudovirus
# Experiment: as above
# Method: as §1
row,Binder,pseudovirus neutralization IC50
1,B1,> 10 µg/mL
2,B2,> 10 µg/mL
3,B3,> 10 µg/mL
4,B4,> 10 µg/mL
5,B5,> 10 µg/mL
6,B6,> 10 µg/mL

# Molecular target: SARS-CoV-2 early D614G spike pseudovirus
# Experiment: as above
# Method: as §1
row,Binder,pseudovirus neutralization IC50
1,B1,> 10 µg/mL
2,B2,0.518 µg/mL
3,B3,> 10 µg/mL
4,B4,0.0106 µg/mL
5,B5,> 10 µg/mL
6,B6,> 10 µg/mL
